## Primary screen of a compound library

Data taken from ChEMBL document CHEMBL3988442, “University of Dundee, Small-Polar-MMV Screening Library” (2021).

Mtb glucose medium: 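Phenotypic screen: M. tuberculosis growth, glucose 7H9 medium, 3 days; the read-out is not stated. Tested at 50 µM. The record gives no direction; compounds that gave an IC50 in retests scored well above the rest, so higher reads as more growth inhibition. About 69,000 compounds were tested under these conditions; 1.1% (about 760) showed 50% or more at least once.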
Mtb cholesterol medium: 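Phenotypic screen: M. tuberculosis growth, cholesterol and DPPC medium, 4 days; the read-out is not stated. Concentration: 50 µM. Direction is inferred from retests: higher values go with more growth inhibition. About 69,000 compounds were tested under these conditions; 0.54% (about 370) showed 50% or more at least once.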

Values are the deposited “Percent Effect”, in %. The controls that fix the scale are not given in the record; negative values are as filed. The entries come from a sample that favours strong results. Two or more numbers in one place are separate tests of the same structure; such repeats can differ widely. A dash means the value is not listed here; it may have been measured.

compound | Mtb glucose medium | Mtb cholesterol medium
CC(C(=O)N1CCC(Cc2ccc(F)cc2)CC1)n1ccnc1 (stereo not given) | 14.44 | -
CC(=O)N1CCOC(Cc2cccc(C(F)(F)F)c2)C1 (stereo not given) | 33.46 and 3.288 | -
Cc1nc2c(c(N3CC=CC3)n1)CCN(Cc1ccoc1)CC2 | -19.58 | -39.11
CCOCC1CN(Cc2ccsc2)Cc2cnn(C)c21 (stereo not given) | -18.96 | -
COc1ccc(C2CCCN2c2cnccn2)c(OC)c1 (stereo not given) | -28.54 | -
CC(C)OCCOCc1cccc(NC(=O)NCc2ccncc2)c1 | -53.24 | -
COc1cn(CC(=O)N2CCN(c3ccc(F)cc3)CC2)c(C)cc1=O | 7.124 | 0.2278
CC(C)CCC(C)NC(=O)Nc1ccccn1 (stereo not given) | 59.94 | 64.13
CN(CCc1ccccn1)Cc1nccn1Cc1ccccc1 | 63.66 | -
CCc1cc(CNC(=O)c2cc(NC(=O)C(C)C)ccc2Cl)[nH]n1 | 3.125 and -17.45 | -0.08969
[H][C@@]12CCN(C[C@@H]1CC)[C@@H](CNCc1ccc(N(C)C)cc1)C2 | -1.692 and -13.95 | -20.98
COC(=O)C1CCN(C(=O)c2nnc3ccc(C)cc3n2)CC1 | 5.466 | -
CCOc1ccnc(N[C@@H](Cc2ccccc2)C(N)=O)n1 | - | -1.984 and 77.23
Clc1cccc(-c2noc(CCN3CCN(c4ccncc4)CC3)n2)c1 | 29.59 and 25.33 | 38.29
COc1ccc(CNc2ncc(-c3cc(C)no3)c(C(C)C)n2)cc1 | 18.9 | 61.07
CN1CCN(C(=O)c2csnn2)c2ccccc21 | -5.991 and -3.991 | -
CCc1cnccc1C(=O)Nc1ccc(C(N)=O)nc1 | -18.06 | 9.723
COCc1ccccc1CNC(=O)CNc1ccccc1C(C)=O | -12.01 | -
Cc1cnn(-c2cccc(N3CCCCC3)n2)c1 | - | -5.993
CN(Cc1ccon1)C(=O)CN1C(=O)OC(C)(C)C1=O | 0.7899 and 7.97 | -
Cc1cc(S(=O)(=O)N2C[C@H](C3CC3)[C@@H](N)C2)c(C)s1 | -12.61 | -
CNc1c(NCc2ccco2)c(=O)c1=O | 14.69 | 16.4
O=S(=O)(CCN1CCOC(Cn2cccn2)C1)c1ccccc1 (stereo not given) | -20.6 | -
CC(C)c1nc(CN2CCC(CO)CC2)cs1 | -44.26 | -
CN(C)[C@H]1C[C@@H](Cc2cc(CO)on2)C1(C)C | 15.7 and -0.2501 | -
COC(=O)C(NC(=O)Nc1ccc(C(C)=O)cc1)C(C)C (stereo not given) | 29.37 | 7.141
Cc1noc(C)c1S(=O)(=O)N1CCc2nc(C3CCNCC3)ncc2C1.Cl | -2.796 | -
Cc1noc(C)c1C(=O)N1CCCC(c2nccn2Cc2cscn2)C1 (stereo not given) | 1.123 | -
CN(Cc1cnn(C)c1)C(=O)c1ccc(=O)n(C)n1 | -4.659 and 61.36 | -
CC(C)OCc1cccc(CNc2cnn(C)c(=O)c2Cl)c1 | - | 53.92
N[C@@H]1CCC[C@@H](Oc2ccc(F)cc2Oc2ccccc2)[C@@H]1O | 23.9 | -2.167
Cc1nc(C)c2c(n1)CCN(Cc1ccco1)CC2 | -4.32 and -1.183 | -10.33
COC1(CNC(=O)c2ccc(F)c(F)c2)CCSC1 (stereo not given) | - | 15.05
CC(=O)Nc1cc(C2CC2)nn1-c1nc(C)c(C)c(=O)[nH]1 | 24.75 | -
O=S(=O)(Cc1ccc(Br)cc1)NCCO | -3.975 and 69.73 | -
O=C(c1cc(-c2cccs2)on1)N1CCCCC1Cn1cccn1 (stereo not given) | 3.955 | -
Cc1nc(CN(C)C2CCCN(c3cccnn3)C2)oc1C (stereo not given) | 14.73 | -
O=C(O)C(F)(F)F.[H][C@@]12CN(Cc3ccc(F)cc3)C[C@]1([H])C(=O)N(c1ccsc1)C2 | 46.71 | -
COc1ccc(C)cc1CN1CCCC1c1noc(C2CC2)n1 (stereo not given) | 52.46 | -
CCc1c(C)n(CCC#N)c2nc3ccccc3n2c1=O | -17.25 and 60.58 | -
Cc1ccc(C(=O)N2CCCN(Cc3cscn3)CC2)o1 | - | 3.492
Cc1ccn(-c2ccccc2NCc2scnc2C)n1 | 50.6 and 27.16 | -
CCc1nc(CN(C)C2CCN(CCC(=O)N3CCCCC3)C2)no1 (stereo not given) | 95.22 | -
Cc1nnc(N2CC[C@H](OCC3CC3)[C@@H](Cc3ccccc3)C2)s1.O=C(O)C(F)(F)F | 33.85 | 10.19
CCOc1cc(C(=O)N2CCCC2)cc2occc12 | -1.141 | -
O=C(NCc1csc(Br)c1)c1cnccn1 | 35.34 | 22.26
COc1ccccc1C(C)(C)NCc1ccco1 | 2.39 | -1.729
c1ccc(-c2nc3c(c(NCc4n[nH]c5c4CCC5)n2)CCNC3)cc1 | 82.47 | 57.51
Cn1nnc(NCc2ccccc2OCc2ccc(Cl)cc2)n1 | 44.94 | -
CC(C)N1CC[C@H](c2nc3ccc(C(F)(F)F)cc3[nH]2)C1 | -2.745 and 17.79 | -
O=C1CNc2ncnc(N3CCN(Cc4ccccc4F)CC3)c2N1 | 14.5 | -
O=C(Cc1cccs1)Nc1cnn(C2CCOC2)c1 (stereo not given) | - | 71.81
O=C(CNC(=O)C1CC1)NCc1ccc(Cl)s1 | 15.54 | -
O=C(NCCNC(=O)c1ccc(Cl)cc1)NCCn1cccc1 | 26.52 | 14.96
COc1c(Br)cccc1CCNC(=O)c1csnn1 | 63.29 and 39.08 | -
Cc1cc(CNC(=O)COc2ccccc2F)c(C)o1 | 11.35 and 18.32 | 4.199
CC(C)(C)c1cc(CN2CCOC(CN)C2)n[nH]1 (stereo not given) | - | -29.65
CN(C)S(=O)(=O)c1ccc(CNc2ccc(Cl)cn2)cc1 | 5.756 | 6.209
CC(=O)NCc1noc2c1CN(Cc1cccs1)CC2 | 4.378 and -14.37 | -
CCOCCCC(=O)Nc1cc(C(N)=O)ccc1N1CCCCC1 | -16.83 | -
CN1CCOC[C@H]1c1nc(-c2ccccc2)c[nH]1 | 0.9532 and 3.666 | -
c1cnc(N2CCC(c3nccn3CC3CC3)CC2)nc1 | - | -3.019
CCC(=O)N1CCC(Cc2cc(Nc3ncccn3)ncn2)CC1 | - | 2.175
COc1ccccc1-c1ncc(CN2C[C@H](O)[C@@H](N3CCCC3)C2)s1 | 36.85 | -
Cc1nccn1CCCn1cncc1-c1ccc2c(c1)CCC(C)N2C.Cl (stereo not given) | 43.25 | 8.504 and 14.31
O=C(C1CCCOC1)N1CCN(CC(F)(F)F)c2ccccc21 (stereo not given) | 10.95 | -
CCc1nccn1C1CCCN(C(=O)c2ccc3[nH]nnc3c2)C1 (stereo not given) | - | 14.38
COCCCNS(=O)(=O)c1cc(Br)sc1C | 15.58 | -
[H][C@@]12CCN(Cc3ccco3)CC[C@]1([H])[C@@H](COCC1CC1)CN(C)C2=O | -9.897 and 3.043 | -
Cc1nccn1C1CCCN(C(=O)c2ccc(N(C)C)nn2)C1 (stereo not given) | -24.8 | -
Clc1ccc2nc(N3CCC(NCCCC4CCOC4)CC3)sc2c1 (stereo not given) | 1.498 | -10.29
O=C(O)C(F)(F)F.[H][C@@]12OCCN(C(=O)COc3ccccc3)[C@@]1([H])CC[C@H]2OCCN(C)C | -27.88 | -
NCc1n[nH]c(-c2cccc(F)c2)n1 | -7.661 and -26.02 | -
Cn1c(=O)c2c(c3ccccc31)OC(C)(C)CC2 | 7.633 and 19.54 | -
Cc1cccc(-c2ccc(C(=O)N3CCN(C(C)C)CC3)c(=O)[nH]2)c1 | 5.196 and -7.551 | -
COc1cccc(F)c1C(C)NC(=O)NCc1ccnc(C)n1 (stereo not given) | 1.062 | -24.62
CCN1c2ccc(-c3cncn3CCCn3ccnc3C)cc2CC1C.Cl (stereo not given) | 57.44 | 35.25 and 59.65
CN(C)CCN1CCC(CNCc2c[nH]nc2C(C)(C)C)CC1 | -39.65 | -43.85
Cc1cccc(CN2CCCC3(CCN(C4CCSCC4)C3)C2=O)c1 (stereo not given) | 54.73 and 53.15 | -
O=C(O)C(F)(F)F.O=C(O)C(F)(F)F.[H][C@@]12COC[C@H](C(=O)Nc3cccnc3)[C@]1([H])CN(C1CCCC1)C2 | - | 83.81 and -13.2
COc1cc(C)c(CN2CCc3nc4ccsc4c(=O)n3CC2)cc1C | 0.8756 | -17.03
COCCC(=O)NCC1COc2cc(OC)ccc2C1 (stereo not given) | 29.24 | 13.4

Some entries from above, unchanged:

{"compound": "Cc1nc(C)c2c(n1)CCN(Cc1ccco1)CC2", "Mtb glucose medium": "-4.32 and -1.183", "Mtb cholesterol medium": -10.33}
{"compound": "CC(C(=O)N1CCC(Cc2ccc(F)cc2)CC1)n1ccnc1", "stereo": "stereo not given", "Mtb glucose medium": 14.44}
{"compound": "Cc1cccc(CN2CCCC3(CCN(C4CCSCC4)C3)C2=O)c1", "stereo": "stereo not given", "Mtb glucose medium": "54.73 and 53.15"}
{"compound": "NCc1n[nH]c(-c2cccc(F)c2)n1", "Mtb glucose medium": "-7.661 and -26.02"}
{"compound": "COc1cn(CC(=O)N2CCN(c3ccc(F)cc3)CC2)c(C)cc1=O", "Mtb glucose medium": 7.124, "Mtb cholesterol medium": 0.2278}